Results from paper PMC11112747, “Cyanovirin-N Binding to N-Acetyl-D-glucosamine Requires Carbohydrate-Binding Sites on Two Different Protomers” (Biochemistry, 2024).

B1: CVN-E41T: CV-N binding-site variant with single-point mutation E41T, generated by alanine to threonine substitution (protein, UniProt P81180 1-101, looked up, variant E41T)
Cyanovirin-N: LGKFSQTCYNSAIQGSVLTSTCERTNGGYNTSSIDLNSVITNVDGSLKWQPSNFIETCRNTQLAGSSELAAECKTRAQQFVSTKINLDDHIANIDGTLKYE
B2: CVN2: tandem-linked dimeric CVN2 with zero-linker length; tandem repeat of two CV-N molecules (protein, UniProt P81180 1-101, looked up)
Cyanovirin-N: B1 Cyanovirin-N with T41E
modifications: tandem repeat dimer, zero linker
notes: tandem-linked dimeric CVN2 with zero-linker length; tandem repeat of two CV-N molecules
B3: mutant E41T dimer: CVN-E41T mutant expressed with a tandem repeat of two sequences (stable dimer) (protein, UniProt P81180 1-101, looked up, variant E41T)
Cyanovirin-N: B1 Cyanovirin-N
modifications: tandem repeat dimer
B4: CVN-E41A: monomeric CV-N variant with Glu41 substituted by alanine (protein, UniProt P81180 1-101, looked up, variant E41A)
Cyanovirin-N: B1 Cyanovirin-N with T41A
B5: Cyanovirin-N (protein, UniProt P81180 1-101, looked up)
Cyanovirin-N: B1 Cyanovirin-N with T41E

Tests used:
[1] = ITC binding of CV-N, CVN2 and variants to GlcNAc; settings: for stoichiometry / enthalpy ΔH / entropy TΔS / free energy ΔG: one-set of sites model, T = 298 K; for enthalpy ΔH / entropy TΔS / free energy ΔG: PBS pH 7.4; for -TΔS1 / N1 / -TΔS2 / N2: two-sets of sites model; for -TΔS1: site 1; for N1: site 1 stoichiometry; for -TΔS2: site 2; for N2: site 2 stoichiometry
[2] = ITC binding of CV-N, CVN2 and variants to ManNAc; settings: for -TΔS1: site 1; for -TΔS2: site 2; for N2: site 2 stoichiometry
Procedure: Calorimetric titrations were carried out using an ITC200 device (Malvern Panalytical, Malvern, UK). The concentration of mutant E41T dimer and monomeric variants CVN-E41T or CVN-E41A was 200 μM titrant of these proteins to the ligands ManNAc and GlcNAc in the cell. […] The protein concentrations were 44 μM (304 μM) CVN2L0 and 465 μM CVN-E41T in the ManNAc experiments, respectively, and determined to be between 200 and 300 μM for the GlcNAc experiment. Aliquots (2 μL) of CV-N titrant were injected at 2 min intervals into the sugar solution in the calorimetry cell with a total of 19 injections from a stirring syringe (operated at 750 rpm). Controls were prepared with identical amounts of titrant injected into PBS buffer at pH 7.4 at 298 K, and control values were subtracted from the results of the actual experiments. The values for enthalpy, binding affinity, and stoichiometry from the binding curve and the free energy and entropy of interaction were calculated using Microcal Origin v7.0 (OriginLab, Northampton, Massachusetts, USA) according to the standard expressions: ΔG = −RTln Ka, and ΔG = ΔH–TΔS.

[3] = one-set of sites model, T = 298 K, PBS pH 7.4

Molecule	stoichiometry [1]	enthalpy ΔH [2, 3]	entropy TΔS [2, 3]	-TΔS1 ([2]; two-sets of sites model)	N1 ([2]; two-sets of sites model, site 1 stoichiometry)	-TΔS2 ([2]; two-sets of sites model)	N2 ([2]; two-sets of sites model)	enthalpy ΔH [1]	entropy TΔS [1]	-TΔS1 [1]	N1 [1]	-TΔS2 [1]	N2 [1]	free energy ΔG [1]
B1	1	-80.0 ± 0.0 kcal/mol	-74.2 ± 0.7 kcal/mol	30.5 kcal/mol	4	73.5 kcal/mol	4	–	–	–	–	–	–	–
B2	4.33 ± 0.335	–	–	69.8 kcal/mol	–	67.5 kcal/mol	–	–69.9 ± 17.2 kcal/mol	–61.7 ± 17 kcal/mol	-7.21 kcal/mol	1	32.5 kcal/mol	4	–
B3	N = 1	–	–	–	–	–	–	–80.0 ± 0.0 kcal/mol	–73.3 ± 0.78 kcal/mol	–	–	–	–	–6.68 ± 0.79 kcal/mol
B4	4.73 ± 1.85	–	–	–	–	–	–	–78.9 ± 1.6 kcal/mol	–71.85 ± 2.05 kcal/mol	–	–	–	–	–7.06 ± 0.44 kcal/mol
B5	–	–	–	54.6 kcal/mol	–	74.1 kcal/mol	3	–	–	73.9 kcal/mol	1	73.9 kcal/mol	1	–

Positions count from the first letter of the chain named. In names and notes the source's numbering stands.
